Source: paper PMC12839305 (Biomolecules, 2025)

Molecular target: RVFV glycoprotein Gn head domain (154–469 aa) (Rift Valley fever virus, UniProt P21401 154-469, biotin (biotinylation kit; for the BLI only))
Assay: BLI

| Binder | Kd [nM] |
| --- | --- |
| LRP1 CL IV-B Mutation B1 (Glu3517Ala/Asp3518Ala/Asp3519Ala) (domain or fragment) MTCGVDEFRCKDSGRCIPARWKCDGAAACGDGSDEPKEECDERTCEPYQFRCKNNRCVPGRWQCDYDNDCGDNSDEESCTPRPCSESEFSCANGRCIAGRWKCDGDHDCADGSDEKDCTPRCDMDQFQCKSGHCIPLRWRCDADADCMDGSDEEACGT | 76 |
| LRP1 CL IV-B Mutation B4 (Asp3633Ala/Asp3635Ala/Asp3637Ala) (domain or fragment) MTCGVDEFRCKDSGRCIPARWKCDGEDDCGDGSDEPKEECDERTCEPYQFRCKNNRCVPGRWQCDYDNDCGDNSDEESCTPRPCSESEFSCANGRCIAGRWKCDGDHDCADGSDEKDCTPRCDMDQFQCKSGHCIPLRWRCAAAAACMDGSDEEACGT | 91 |
